PubChem BioAssay AID1259414 – Drosophila RNAi Screening Center, 2018
In all, the deposit lists about 24,000 reagents; shown is an unselected part of those that have a named target and a result. Over the whole deposit, about 1,210 (5%) got an active call. 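Inactive calls also include excluded dsRNAs with several or no targets, genes unexpressed in JW18, and well A1, regardless of score.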 Unmarked entries are inactive. The numbers tell different reagents against one gene apart. Reagent sequences are not shown.

Purpose: 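Fly genes that alter Wolbachia amount inside host cells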 (primary screen)
System: Drosophila JW18 cells infected with Wolbachia
Reagents: long dsRNA against Drosophila genes, 0.25 µg dsRNA per well of a 384-well plate
Time to read-out: 5 days
Conditions: cells persistently infected with Wolbachia before knock-down; no added drug
Measured: 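Automated imaging of bacterial rRNA staining divided by host cell count, reported as plate-normalised robust z-score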
Direction: Wolbachia per cell robust z: higher = more Wolbachia per host cell than the plate typical
Rule for the call: 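Hit when robust z is 1.5 or more, or -1.5 or less, in at least two of three replicates; excludes dsRNAs with several or no targets, genes not expressed in JW18 and well A1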

CG34283 scored Wolbachia per cell robust z, rep 1 = -1.08; Wolbachia per cell robust z, rep 2 = -0.00761; Wolbachia per cell robust z, rep 3 = 0.0834.
For VGlut (Vesicular glutamate transporter) #1, the values are Wolbachia per cell robust z, rep 1 = -0.0258; Wolbachia per cell robust z, rep 2 = -0.416; Wolbachia per cell robust z, rep 3 = 0.835.
For VGlut (Vesicular glutamate transporter) #2, the values are Wolbachia per cell robust z, rep 1 = 0.703; Wolbachia per cell robust z, rep 2 = -0.222; Wolbachia per cell robust z, rep 3 = -0.776.
Knock-down of Atg4b (Autophagy-related 4b) #1 gave: Wolbachia per cell robust z, rep 1 = -0.234; Wolbachia per cell robust z, rep 2 = -0.664; Wolbachia per cell robust z, rep 3 = -1.11.
For Atg4b (Autophagy-related 4b) #2, the values are Wolbachia per cell robust z, rep 1 = 0.592; Wolbachia per cell robust z, rep 2 = -0.36; Wolbachia per cell robust z, rep 3 = -0.843.
CG9890 #1 showed Wolbachia per cell robust z, rep 1 = -0.416; Wolbachia per cell robust z, rep 2 = 0.196; Wolbachia per cell robust z, rep 3 = 0.396.
After knock-down of CG9890 #2, the record shows Wolbachia per cell robust z, rep 1 = 0.318; Wolbachia per cell robust z, rep 2 = 0.261; Wolbachia per cell robust z, rep 3 = -0.0392.
Depletion of 5-HT2B (5-hydroxytryptamine (serotonin) receptor 2B) #1 resulted in: Wolbachia per cell robust z, rep 1 = 0.714; Wolbachia per cell robust z, rep 2 = 0.227; Wolbachia per cell robust z, rep 3 = 0.357.
For 5-HT2B (5-hydroxytryptamine (serotonin) receptor 2B) #2, the values are Wolbachia per cell robust z, rep 1 = -1.09; Wolbachia per cell robust z, rep 2 = 0.718; Wolbachia per cell robust z, rep 3 = 0.794.
For 5-HT2B (5-hydroxytryptamine (serotonin) receptor 2B) #3, the values are Wolbachia per cell robust z, rep 1 = -0.339; Wolbachia per cell robust z, rep 2 = -0.467; Wolbachia per cell robust z, rep 3 = -0.954.
5-HT2B (5-hydroxytryptamine (serotonin) receptor 2B) #4 showed Wolbachia per cell robust z, rep 1 = 0.319; Wolbachia per cell robust z, rep 2 = -0.698; Wolbachia per cell robust z, rep 3 = 0.254.
After knock-down of 5-HT2B (5-hydroxytryptamine (serotonin) receptor 2B) #5, the record shows Wolbachia per cell robust z, rep 1 = 1.14; Wolbachia per cell robust z, rep 2 = -2.36; Wolbachia per cell robust z, rep 3 = 0.41.
Silencing of Ccp84Ad #1 came out at: Wolbachia per cell robust z, rep 1 = -1.95; Wolbachia per cell robust z, rep 2 = -0.928; Wolbachia per cell robust z, rep 3 = 0.514.
Ccp84Ad #2 scored Wolbachia per cell robust z, rep 1 = -1.17; Wolbachia per cell robust z, rep 2 = -3.04; Wolbachia per cell robust z, rep 3 = -0.509.
For CG4610 #1, the values are Wolbachia per cell robust z, rep 1 = 1.15; Wolbachia per cell robust z, rep 2 = 0.32; Wolbachia per cell robust z, rep 3 = 0.996.
With knock-down of CG4610 #2, the screen gave Wolbachia per cell robust z, rep 1 = 0.72; Wolbachia per cell robust z, rep 2 = 0.107; Wolbachia per cell robust z, rep 3 = 0.151.
Against CG4610 #3 the deposit lists Wolbachia per cell robust z, rep 1 = -0.787; Wolbachia per cell robust z, rep 2 = 0.0537; Wolbachia per cell robust z, rep 3 = 0.513.

Single entries from above.
Under “Wolbachia per cell robust z, rep 2”, VGlut (Vesicular glutamate transporter) #1 is entered as -0.416
For “Wolbachia per cell robust z, rep 2”, 5-HT2B (5-hydroxytryptamine (serotonin) receptor 2B) #3 shows -0.467

Next results follow.
Silencing of ATP7 resulted in: Wolbachia per cell robust z, rep 1 = 1.36; Wolbachia per cell robust z, rep 2 = 1.02; Wolbachia per cell robust z, rep 3 = -0.233.
With knock-down of lncRNA:CR9284 (long non-coding RNA:CR9284) #1 the results were Wolbachia per cell robust z, rep 1 = 0.228; Wolbachia per cell robust z, rep 2 = -5.36; Wolbachia per cell robust z, rep 3 = -0.103.
lncRNA:CR9284 (long non-coding RNA:CR9284) #2 gave Wolbachia per cell robust z, rep 1 = 0.514; Wolbachia per cell robust z, rep 2 = 0.45; Wolbachia per cell robust z, rep 3 = -1.02.
After knock-down of rost (rolling stone) #1, the record shows Wolbachia per cell robust z, rep 1 = -8.44; Wolbachia per cell robust z, rep 2 = 0.987; Wolbachia per cell robust z, rep 3 = 0.426.
Knock-down of rost (rolling stone) #2 resulted in: Wolbachia per cell robust z, rep 1 = -0.0676; Wolbachia per cell robust z, rep 2 = -0.388; Wolbachia per cell robust z, rep 3 = -0.158.
rost (rolling stone) #3 scored Wolbachia per cell robust z, rep 1 = 0.269; Wolbachia per cell robust z, rep 2 = 0.0453; Wolbachia per cell robust z, rep 3 = 0.688.
With knock-down of CG12605 #1, the screen gave Wolbachia per cell robust z, rep 1 = 0.291; Wolbachia per cell robust z, rep 2 = 0.672; Wolbachia per cell robust z, rep 3 = 1.2.
Depletion of CG12605 #2 came out at: Wolbachia per cell robust z, rep 1 = -0.606; Wolbachia per cell robust z, rep 2 = -0.149; Wolbachia per cell robust z, rep 3 = -0.254.
CG12605 #3 gave Wolbachia per cell robust z, rep 1 = -1.1; Wolbachia per cell robust z, rep 2 = 0.0507; Wolbachia per cell robust z, rep 3 = 0.129.
Against CG17855 the deposit lists Wolbachia per cell robust z, rep 1 = -0.695; Wolbachia per cell robust z, rep 2 = -1.25; Wolbachia per cell robust z, rep 3 = -0.895.
After knock-down of vri (vrille) #1, the screen gave Wolbachia per cell robust z, rep 1 = 1.28; Wolbachia per cell robust z, rep 2 = 0.229; Wolbachia per cell robust z, rep 3 = 0.837.
Knock-down of vri (vrille) #2 resulted in: Wolbachia per cell robust z, rep 1 = -0.706; Wolbachia per cell robust z, rep 2 = 0.324; Wolbachia per cell robust z, rep 3 = 0.544.
Crtp (Caldesmon-related protein) #1 showed Wolbachia per cell robust z, rep 1 = 1.07; Wolbachia per cell robust z, rep 2 = 0.406; Wolbachia per cell robust z, rep 3 = 1.62.
Against Crtp (Caldesmon-related protein) #2, the values are Wolbachia per cell robust z, rep 1 = 0.395; Wolbachia per cell robust z, rep 2 = 1.09; Wolbachia per cell robust z, rep 3 = -0.424.
